Results of unrelated studies side by side (data: NIAID ChemDB).

Common to all: tests in culture; organism: HIV-1; read by: p24; measure: EC50

ECn is the concentration giving n% inhibition of infection, replication or growth.

smiles	cells	strain or isolate	mutations	value
Nc1ncnc2c1ncn2[C@@H]1O[C@H](CO)C[C@@H]1F	MT-2	LAI	-	5 µM
Cc1cn([C@H]2C[C@H](N=[N+]=[N-])[C@@H](CO)O2)c(=O)[nH]c1=O	PBMC	Y270-7 Clinical isolate ZDV-resistant	RT-M41W Y188L T215N	1.5 µM
O=C1N(Cc2ccc(CO)cc2)[C@H](Cc2ccccc2)[C@H](O)[C@@H](O)[C@@H](Cc2ccccc2)N1Cc1ccc(CO)cc1	PBMC	Clinical isolate E	-	0.018 µM
Nc1ccn([C@H]2CC[C@@H](CO)O2)c(=O)n1	MT-2	P119S(RT-P119S)	RT-P119S	0.36 µM
Cc1c(O)cccc1C(=O)N[C@@H](CSc1ccccc1)[C@H](O)CN1C[C@H]2CCCC[C@H]2C[C@H]1C(=O)NC(C)(C)C	PBMC	Clinical isolate	PR-L10I K14R R41K M46L I54V L63P A71V V82A L90M I93L	>1 µM
COc1ccc2c(c1)N(C(=O)OC(C)C)[C@@H](CSC)C(=S)N2	CEM	IIIB	RT-L100I	0.002 µg/mL
Cc1ccc(-n2ccc(CN3CCN(C[C@@H](O)C[C@@H](Cc4cccnc4)C(=O)N[C@H]4c5ccccc5OC[C@H]4O)[C@H](C(=O)NCC(F)(F)F)C3)c2)cc1	MT-4	NL4-3 WT	-	<0.015 µM
Nc1ccn([C@H]2CC[C@@H](CO)O2)c(=O)n1	MT-2	RT Δ.67 T69G K103N	1 (Δ.67+T69G+K103N)	0.097 µM
CC(C)(C)NC(=O)[C@@H]1C[C@@H]2CCCC[C@@H]2CN1C[C@@H](O)[C@H](Cc1ccccc1)NC(=O)[C@H](CC(N)=O)NC(=O)c1ccc2ccccc2n1	PBMC	ERS104PRE(PR-L63P) Clinical isolate	PR-L63P	0.01 µM
Cc1cn([C@H]2C[C@H](N=[N+]=[N-])[C@@H](CO)O2)c(=O)[nH]c1=O	MT-2	L214F(RT-L214F)	RT-L214F	0.009 µM
Cc1occc1C(=S)Nc1ccc(Cl)c(/C=N/OC(C)(C)C)c1	CEM	IIIB	RT-G190E	>2 µg/mL
N#Cc1ccc(-n2ccc(CN3CCN(C[C@@H](O)C[C@@H](Cc4cccnc4)C(=O)N[C@H]4c5ccccc5OC[C@H]4O)[C@H](C(=O)NCC(F)(F)F)C3)c2)cc1	MT-4	Q-60C Clinical isolate	PR-L10I N37S R41K M46I I54V I62V L63P A71V V77I V82A L90M I93L	<0.031 µM
CCc1cc(NCc2nc3c(Cl)ccc(Cl)c3o2)c(=O)[nH]c1C	MT-4	NL4-3	RT-K103N Y181C	>3 µM
Cc1cn([C@H]2C[C@H](N=[N+]=[N-])[C@@H](CO)O2)c(=O)[nH]c1=O	PBMC	Recombinant	RT-Q151M	0.03 µM
CC(C)OC(=O)OCOP(=O)(CO[C@H](C)Cn1cnc2c(N)ncnc21)OCOC(=O)OC(C)C	MT-2	G691-2 AZT-resistant (RT D67N K70R T215Y K219Q)	RT-D67N K70R T215Y K219Q	0.003 µM
Cc1cn([C@@H]2O[C@H](CO[Si](C)(C)C(C)(C)C)C3(OS(=O)(=O)C=C3N)[C@H]2O[Si](C)(C)C(C)(C)C)c(=O)n(C)c1=O	CEM	IIIB	RT-V106A	2.2 µg/mL
CC(C)c1nc(CN(C)C(=O)N[C@H](C(=O)N[C@@H](Cc2ccccc2)C[C@H](O)[C@H](Cc2ccccc2)NC(=O)OCc2cncs2)C(C)C)cs1	MT-4	NL4-3	-	<0.05 µM
O=c1[nH]cnc2c1ncn2[C@H]1CC[C@@H](CO)O1	MT-2	RT Δ.67 T69G K103N	1 (Δ.67+T69G+K103N)	0.467 µM
CC(C)(C)NC(=O)[C@@H]1CN(Cc2cccnc2)CCN1C[C@@H](O)C[C@@H](Cc1ccccc1)C(=O)N[C@H]1c2ccccc2C[C@H]1O	PBMC	Clinical isolate	PR-L10I K14R R41K M46L I54V L63P A71V V82A L90M I93L	0.3 µM
O=c1[nH]cnc2c1ncn2[C@H]1CC[C@@H](CO)O1	MT-4	126 WT	-	22 µM
O=c1[nH]cnc2c1ncn2[C@H]1CC[C@@H](CO)O1	PBMC	Recombinant	RT-Q151M	1.3 µM
Nc1ncnc2c1ncn2CCOCP(=O)(O)O	MT-2	P119S(RT-P119S)	RT-P119S	1.1 µM
CC(C)=CCN1Cc2cc(Cl)cc3[nH]c(=S)n(c23)C[C@@H]1C	CEM	IIIB	RT-L100I	1.7 µg/mL
COC(=O)[C@H](C)NP(=O)(OC[C@@H]1C=C[C@H](n2cc(C)c(=O)[nH]c2=O)O1)Oc1ccc(Br)cc1	PBMC	G704-2 Clinical isolate ZDV-resistant	RT-M41L D67N K70R L210W T215Y	0.0032 µM
Cc1ccccc1-n1ccc(CN2CCN(C[C@@H](O)C[C@@H](Cc3cccnc3)C(=O)N[C@H]3c4ccccc4OC[C@H]3O)[C@H](C(=O)NCC(F)(F)F)C2)c1	MT-4	Q-60C Clinical isolate	PR-L10I N37S R41K M46I I54V I62V L63P A71V V77I V82A L90M I93L	<0.031 µM
CC(C)CN(C[C@@H](O)[C@H](Cc1ccccc1)NC(=O)O[C@H]1CCOC1)S(=O)(=O)c1ccc(N)cc1	PBMC	Clinical isolate	PR-L10I I15V K20R M36I M46L I54V K55R I62V L63P K70Q V82A L89M	0.28 µM
Nc1ccn([C@H]2CC[C@@H](CO)O2)c(=O)n1	PBL	U455	-	0.02 µM
Cc1cn([C@H]2C[C@H](N=[N+]=[N-])[C@@H](CO)O2)c(=O)[nH]c1=O	PBMC	G762-3	-	0.02 µM
O=c1[nH]cnc2c1ncn2[C@H]1CC[C@@H](CO)O1	MT-4	263	-	3.6 µM
O=C(N[C@H]1c2ccccc2OC[C@H]1O)[C@H](Cc1cccnc1)C[C@H](O)CN1CCN(Cc2ccn(-c3ccc(Cl)c(Cl)c3)c2)C[C@H]1C(=O)NCC(F)(F)F	MT-4	NL4-3 WT	-	<0.015 µM

Again, the opening 3 rows:

{"smiles": "Nc1ncnc2c1ncn2[C@@H]1O[C@H](CO)C[C@@H]1F", "cells": "MT-2", "strain or isolate": "LAI", "value": "5 µM"}
{"smiles": "Cc1cn([C@H]2C[C@H](N=[N+]=[N-])[C@@H](CO)O2)c(=O)[nH]c1=O", "cells": "PBMC", "strain or isolate": "Y270-7 Clinical isolate ZDV-resistant", "mutations": "RT-M41W Y188L T215N", "value": "1.5 µM"}
{"smiles": "O=C1N(Cc2ccc(CO)cc2)[C@H](Cc2ccccc2)[C@H](O)[C@@H](O)[C@@H](Cc2ccccc2)N1Cc1ccc(CO)cc1", "cells": "PBMC", "strain or isolate": "Clinical isolate E", "value": "0.018 µM"}

Rows are shuffled and stem from different studies. Blank or dashed fields: not listed here.